A mixed list of measured activities; the numbers were collected in NIAID ChemDB.

Shared fields: toxicity to cultured cells; cells: PBMC; measure: CC50

Rows are shuffled and stem from different studies. CCn is the concentration with n% toxicity to the cells. Blank or dashed fields: not listed here.

{"structure": "COC(=O)[C@H](C)NP(=O)(OC[C@@H]1C=C[C@H](n2cc(C)c(=O)[nH]c2=O)O1)Oc1ccc(OC)cc1", "result": ">10 µM"}
{"structure": "[N-]=[N+]=Nc1nc(N)nc2c1ncn2[C@H]1CO[C@@H](CO)O1", "read by": "MTT", "result": ">100 µM"}
{"structure": "CNc1ncnc2c1ncn2[C@H]1C=C[C@@H](CO)O1", "result": ">100 µM"}
{"structure": "Cc1ccc(-c2ccc3c(c2)C=C(C(=O)Nc2ccc(C[N+](C)(C)C4CCOCC4)cc2)CCC3)cc1", "result": ">20 µM"}
{"structure": "NNC(=O)NN1C(=O)c2cc(S(=O)(=O)[O-])cc3c(N)c(S(=O)(=O)[O-])cc(c23)C1=O", "result": ">100 µM"}
{"structure": "Nc1ccn([C@@H]2C[C@@H](O)[C@H](CO)O2)c(=O)n1", "result": ">200 µM"}
{"structure": "CNc1nc(N)nc2c1ncn2[C@H]1CO[C@@H](CO)O1", "read by": "MTT", "result": ">100 µM"}
{"structure": "Nc1ncnc2c1ncn2[C@@H]1C[C@@H](O)[C@H](CO)O1", "result": ">200 µM"}
{"structure": "COC(=O)C(C)CNP(=O)(OC[C@@H]1CC[C@H](n2cc(C)c(=O)[nH]c2=O)O1)Oc1ccc(OC)cc1", "result": ">100 µM"}
{"structure": "CO[C@H]1O[C@@H](n2ccc(=O)[nH]c2=O)C[C@@H]1N=[N+]=[N-]", "result": ">100 µM"}
{"structure": "COC(=O)C(C)CNP(=O)(OC[C@@H]1CC[C@H](n2cc(C)c(=O)[nH]c2=O)O1)Oc1ccc([N+](=O)[O-])cc1", "result": ">100 µM"}
{"structure": "O=C(O)C(=O)/C=C(\\O)c1cn(Cc2ccccc2)c(=O)n(Cc2ccccc2)c1=O", "read by": "MTS", "result": ">200 µM"}
{"structure": "Nc1ncnc2c1ncn2[C@H]1C=C[C@@H](CO)O1", "result": ">100 µM"}
{"structure": "NC(=O)NO", "result": "~500 µM"}
{"structure": "[N-]=[N+]=NC1=C[C@H](n2cnc3c(=O)[nH]c(N)nc32)O[C@@H]1CO", "result": "28 µM"}
{"structure": "N#CCn1ccc(=O)n(Cc2cc(Cl)cc(Cl)c2)c1=O", "result": "214 µM"}
{"structure": "Nc1nc2c(ncn2[C@H]2CO[C@@H](CO)O2)c(=O)[nH]1", "read by": "MTT", "result": ">100 µM"}
{"structure": "Nc1nc2c(ncn2[C@H]2CC[C@@H](CO)O2)c(=O)[nH]1", "result": ">100 µM"}
{"structure": "[N-]=[N+]=NC1=C[C@H](n2ccc(N)nc2=O)O[C@@H]1CO", "result": "~100 µM"}
{"structure": "CC(C)[C@H](N)C(=O)OC[C@@H]1OC[C@H](n2cnc3c(N)nc(N)nc32)O1", "read by": "MTT", "result": ">100 µM"}
{"structure": "Cc1cc(C)cc(Cn2c(=O)c(I)cn(Cc3ccccc3)c2=O)c1", "result": "201 µM"}
{"structure": "CCNc1ncnc2c1ncn2[C@H]1CC[C@@H](CO)O1", "result": "100 µM"}
{"structure": "Cc1cn([C@H]2C[C@H](N=[N+]=[N-])[C@@H](CO)O2)c(=O)[nH]c1=O", "result": ">100 µM"}
{"structure": "Cc1cn([C@H]2CC[C@@H](CO)O2)c(=O)[nH]c1=O", "result": ">100 µM"}
{"structure": "Nc1ncnc2c1ncn2[C@H]1OC[C@@](F)(CCP(=O)(O)O)[C@H]1F", "read by": "MTT", "result": ">100 µM"}
{"structure": "CC(C)(C)C(=O)c1sc(C(=O)NCc2ccccc2)c(O)c1O", "read by": "resazurin", "result": "12.5 µM"}
{"structure": "[N-]=[N+]=N[C@H]1[C@@H](O)[C@H](n2cnc3c(=O)[nH]c(N)nc32)O[C@@H]1CO", "result": "14.5 µM"}
{"structure": "O=c1ccn(Cc2c(F)cccc2F)c(=O)n1Cc1c(F)cccc1F", "result": "149 µM"}
{"structure": "Oc1ccc(/C=C/c2cc(O)cc(O)c2)cc1", "result": ">10 µM"}
{"structure": "Cc1cc(C)cc(Cn2c(=O)ccn(Cc3ccccc3)c2=O)c1", "result": "194 µM"}
{"structure": "Cc1cc(C)nc(N2C(=O)CSC2c2c(Cl)cccc2[N+](=O)[O-])c1", "read by": "MTT", "result": "9 µg/mL"}
{"structure": "CC1(C)CC[C@]2(C(=O)O)CC[C@]3(C)C(=CC[C@@H]4[C@@]5(C)CC[C@H](O[C@@H]6O[C@H](CO)[C@H](O[C@@H]7O[C@H](OO)[C@H](O)[C@H](O)[C@H]7O)[C@H](O)[C@H]6O)C(C)(C)[C@@H]5CC[C@]43C)[C@@H]2C1", "read by": "MTT", "result": "9.44 µg/mL"}
{"structure": "O=c1[nH]cnc2c1ncn2[C@H]1C=C[C@@H](CO)O1", "result": ">100 µM"}
{"structure": "Cc1cn([C@H]2C=C(N=[N+]=[N-])[C@@H](CO)O2)c(=O)[nH]c1=O", "result": "24.2 µM"}
{"structure": "CNc1ncnc2c1ncn2[C@@H]1O[C@H](CO)C[C@@H]1F", "result": "100 µM"}
{"structure": "Cc1ccc(Cn2c(=O)ccn(CC#N)c2=O)c(C)c1", "result": ">464 µM"}
{"structure": "Cc1ccc(CCNC(=S)Nc2ccc(Br)cn2)cc1", "result": "71 µM"}
{"structure": "Nc1ncnc2c1ncn2[C@H]1OC[C@@](F)(C=CP(=O)(O)O)[C@H]1F", "read by": "MTT", "result": ">100 µM"}
{"structure": "Nc1ncnc2c1ncn2[C@H]1CC[C@@H](CO)O1", "result": "100 µM"}
{"structure": "[B-][P@](=O)(OC[C@H]1O[C@@H](n2cc(C)c(=O)[nH]c2=O)C[C@@H]1N=[N+]=[N-])OP(=O)(O)C(F)(F)P(=O)(O)O", "result": ">50 µM"}
{"structure": "Nc1c(S(=O)(=O)[O-])cc2c3c(cc(S(=O)(=O)[O-])cc13)C(=O)N(NC(=O)N/N=C\\c1cccc(C=O)c1)C2=O.[Na+].[Na+]", "result": ">100 µM"}
{"structure": "Nc1ncc([C@H]2C=C[C@@H](CO)O2)c(=O)[nH]1", "result": ">100 µM"}
{"structure": "COC(=O)C(C)CNP(=O)(OC[C@@H]1CC[C@H](n2cc(C)c(=O)[nH]c2=O)O1)Oc1ccccc1", "result": ">100 µM"}
{"structure": "Nc1nc2c(ncn2[C@H]2C=C[C@@H](CO)O2)c(=O)[nH]1", "result": ">100 µM"}
{"structure": "Nc1nc2c(ncn2[C@H]2OC[C@@](F)(CCP(=O)(O)O)[C@H]2F)c(=O)[nH]1", "read by": "MTT", "result": ">100 µM"}
{"structure": "O=c1[nH]cnc2c1ncn2[C@H]1CC[C@@H](CO)O1", "result": ">100 µM"}
{"structure": "Cc1cc(Cl)nc(C)c1C(=O)NCC[C@@H](C)N1CCC(N(Cc2ccsc2)C(=O)Nc2ccc(C(O)O)cc2)CC1", "result": ">32.2 µM"}

The first 5 rows once more:

structure,read by,result
COC(=O)[C@H](C)NP(=O)(OC[C@@H]1C=C[C@H](n2cc(C)c(=O)[nH]c2=O)O1)Oc1ccc(OC)cc1,-,>10 µM
[N-]=[N+]=Nc1nc(N)nc2c1ncn2[C@H]1CO[C@@H](CO)O1,MTT,>100 µM
CNc1ncnc2c1ncn2[C@H]1C=C[C@@H](CO)O1,-,>100 µM
Cc1ccc(-c2ccc3c(c2)C=C(C(=O)Nc2ccc(C[N+](C)(C)C4CCOCC4)cc2)CCC3)cc1,-,>20 µM
NNC(=O)NN1C(=O)c2cc(S(=O)(=O)[O-])cc3c(N)c(S(=O)(=O)[O-])cc(c23)C1=O,-,>100 µM